Measured values: ChEMBL document CHEMBL3621085, “Tetrazole regioisomers in the development of nitro group-containing antitubercular agents” (Medchemcomm, 2015)

Tests used:
Type in all cases: functional
Mycobacterium kansasii [1] = experiment: Antimycobacterial activity against Mycobacterium kansasii My 235/80 after 14 days by micromethod
Mycobacterium kansasii [2] = experiment: Antimycobacterial activity against Mycobacterium kansasii 6509/96 after 14 days by micromethod
Mycobacterium kansasii [3] = experiment: Antimycobacterial activity against Mycobacterium kansasii 6509/96 after 21 days by micromethod
Mycobacterium kansasii [4] = experiment: Antimycobacterial activity against Mycobacterium kansasii My 235/80 after 21 days by micromethod
Mycobacterium avium [5] = experiment: Antimycobacterial activity against Mycobacterium avium My 330/88 after 14 days by micromethod
Mycobacterium kansasii [6] = experiment: Antimycobacterial activity against Mycobacterium kansasii My 235/80 after 7 days by micromethod
Mycobacterium avium [7] = experiment: Antimycobacterial activity against Mycobacterium avium My 330/88 after 21 days by micromethod
[8] = system: Mycobacterium tuberculosis; experiment: Antimycobacterial activity against Mycobacterium tuberculosis My 331/88 after 14 days by micromethod
[9] = system: Mycobacterium tuberculosis; experiment: Antimycobacterial activity against Mycobacterium tuberculosis My 331/88 after 21 days by micromethod
Mycobacterium kansasii [10] = experiment: Antimycobacterial activity against Mycobacterium kansasii 6509/96 after 7 days by micromethod

SMILES | MIC (Mycobacterium kansasii [1]) [µM] | MIC (Mycobacterium kansasii [2]) [µM] | MIC (Mycobacterium kansasii [3]) [µM] | MIC (Mycobacterium kansasii [4]) [µM] | MIC (Mycobacterium avium [5]) [µM] | MIC (Mycobacterium kansasii [6]) [µM] | MIC (Mycobacterium avium [7]) [µM] | MIC [8] [µM] | MIC [9] [µM] | MIC (Mycobacterium kansasii [10]) [µM]
O=[N+]([O-])c1ccc(C[Se]c2nnn(Cc3ccc([N+](=O)[O-])cc3[N+](=O)[O-])n2)c([N+](=O)[O-])c1 | 32 (≈ 16.3 µg/mL) | 62 (≈ 31.6 µg/mL) | 62 (≈ 31.6 µg/mL) | 62 (≈ 31.6 µg/mL) | 16 (≈ 8.15 µg/mL) | 16 (≈ 8.15 µg/mL) | 32 (≈ 16.3 µg/mL) | 2 (≈ 1.02 µg/mL) | 4 (≈ 2.04 µg/mL) | 32 (≈ 16.3 µg/mL)
O=[N+]([O-])c1ccc(CSc2nnn(Cc3cc([N+](=O)[O-])cc([N+](=O)[O-])c3)n2)cc1 | 8 (≈ 3.34 µg/mL) | 16 (≈ 6.68 µg/mL) | 32 (≈ 13.4 µg/mL) | 16 (≈ 6.68 µg/mL) | 250 (≈ 104 µg/mL) | 4 (≈ 1.67 µg/mL) | 250 (≈ 104 µg/mL) | 8 (≈ 3.34 µg/mL) | 8 (≈ 3.34 µg/mL) | 16 (≈ 6.68 µg/mL)
O=[N+]([O-])c1ccc(CSc2nnnn2Cc2cc([N+](=O)[O-])cc([N+](=O)[O-])c2)cc1 | 8 (≈ 3.34 µg/mL) | 16 (≈ 6.68 µg/mL) | 32 (≈ 13.4 µg/mL) | 16 (≈ 6.68 µg/mL) | 250 (≈ 104 µg/mL) | 4 (≈ 1.67 µg/mL) | 250 (≈ 104 µg/mL) | 8 (≈ 3.34 µg/mL) | 8 (≈ 3.34 µg/mL) | 16 (≈ 6.68 µg/mL)
O=[N+]([O-])c1ccc(C[Se]c2nnnn2Cc2ccc([N+](=O)[O-])cc2[N+](=O)[O-])c([N+](=O)[O-])c1 | 62 (≈ 31.6 µg/mL) | 62 (≈ 31.6 µg/mL) | 62 (≈ 31.6 µg/mL) | 62 (≈ 31.6 µg/mL) | 32 (≈ 16.3 µg/mL) | 32 (≈ 16.3 µg/mL) | 32 (≈ 16.3 µg/mL) | 8 (≈ 4.07 µg/mL) | 16 (≈ 8.15 µg/mL) | 32 (≈ 16.3 µg/mL)
O=[N+]([O-])c1cc(C[Se]c2nnn(Cc3cc([N+](=O)[O-])cc([N+](=O)[O-])c3)n2)cc([N+](=O)[O-])c1 | 4 (≈ 2.04 µg/mL) | 4 (≈ 2.04 µg/mL) | 8 (≈ 4.07 µg/mL) | 8 (≈ 4.07 µg/mL) | 125 (≈ 63.7 µg/mL) | 2 (≈ 1.02 µg/mL) | 125 (≈ 63.7 µg/mL) | 1 (≈ 0.509 µg/mL) | 1 (≈ 0.509 µg/mL) | 2 (≈ 1.02 µg/mL)
O=[N+]([O-])c1ccc(Cn2nnnc2SCc2cc([N+](=O)[O-])cc([N+](=O)[O-])c2)cc1 | 4 (≈ 1.67 µg/mL) | 8 (≈ 3.34 µg/mL) | 16 (≈ 6.68 µg/mL) | 4 (≈ 1.67 µg/mL) | 250 (≈ 104 µg/mL) | 1 (≈ 0.417 µg/mL) | 250 (≈ 104 µg/mL) | 2 (≈ 0.835 µg/mL) | 4 (≈ 1.67 µg/mL) | 2 (≈ 0.835 µg/mL)
O=[N+]([O-])c1ccc(Cn2nnc(SCc3cc([N+](=O)[O-])cc([N+](=O)[O-])c3)n2)cc1 | 2 (≈ 0.835 µg/mL) | 8 (≈ 3.34 µg/mL) | 8 (≈ 3.34 µg/mL) | 4 (≈ 1.67 µg/mL) | 250 (≈ 104 µg/mL) | 2 (≈ 0.835 µg/mL) | 250 (≈ 104 µg/mL) | 1 (≈ 0.417 µg/mL) | 2 (≈ 0.835 µg/mL) | 2 (≈ 0.835 µg/mL)
O=[N+]([O-])c1cc(C[Se]c2nnnn2Cc2ccc([N+](=O)[O-])cc2[N+](=O)[O-])cc([N+](=O)[O-])c1 | 32 (≈ 16.3 µg/mL) | 16 (≈ 8.15 µg/mL) | 32 (≈ 16.3 µg/mL) | 62 (≈ 31.6 µg/mL) | 125 (≈ 63.7 µg/mL) | 8 (≈ 4.07 µg/mL) | 125 (≈ 63.7 µg/mL) | 4 (≈ 2.04 µg/mL) | 8 (≈ 4.07 µg/mL) | 4 (≈ 2.04 µg/mL)
O=[N+]([O-])c1ccc(Cn2nnnc2[Se]Cc2cc([N+](=O)[O-])cc([N+](=O)[O-])c2)cc1 | 16 (≈ 7.43 µg/mL) | 8 (≈ 3.71 µg/mL) | 16 (≈ 7.43 µg/mL) | 32 (≈ 14.9 µg/mL) | 125 (≈ 58 µg/mL) | 4 (≈ 1.86 µg/mL) | 125 (≈ 58 µg/mL) | 2 (≈ 0.929 µg/mL) | 4 (≈ 1.86 µg/mL) | 4 (≈ 1.86 µg/mL)
O=[N+]([O-])c1cc(Cn2nnnc2SCc2ccc([N+](=O)[O-])cc2[N+](=O)[O-])cc([N+](=O)[O-])c1 | 62 (≈ 28.7 µg/mL) | 32 (≈ 14.8 µg/mL) | 62 (≈ 28.7 µg/mL) | 62 (≈ 28.7 µg/mL) | 16 (≈ 7.4 µg/mL) | 32 (≈ 14.8 µg/mL) | 32 (≈ 14.8 µg/mL) | 4 (≈ 1.85 µg/mL) | 4 (≈ 1.85 µg/mL) | 16 (≈ 7.4 µg/mL)
O=[N+]([O-])c1cc(Cn2nnnc2[Se]Cc2ccc([N+](=O)[O-])cc2[N+](=O)[O-])cc([N+](=O)[O-])c1 | 32 (≈ 16.3 µg/mL) | 62 (≈ 31.6 µg/mL) | 62 (≈ 31.6 µg/mL) | 62 (≈ 31.6 µg/mL) | 250 (≈ 127 µg/mL) | 16 (≈ 8.15 µg/mL) | 250 (≈ 127 µg/mL) | 16 (≈ 8.15 µg/mL) | 16 (≈ 8.15 µg/mL) | 32 (≈ 16.3 µg/mL)
O=[N+]([O-])c1cc(Cn2nnc(SCc3ccc([N+](=O)[O-])cc3[N+](=O)[O-])n2)cc([N+](=O)[O-])c1 | 16 (≈ 7.4 µg/mL) | 16 (≈ 7.4 µg/mL) | 16 (≈ 7.4 µg/mL) | 32 (≈ 14.8 µg/mL) | 250 (≈ 116 µg/mL) | 4 (≈ 1.85 µg/mL) | 250 (≈ 116 µg/mL) | 4 (≈ 1.85 µg/mL) | 4 (≈ 1.85 µg/mL) | 8 (≈ 3.7 µg/mL)

≈ marks a conversion by molar mass, not a printed value.
